## Share of PSTVd loop 6 variants by leaf site

PSTVd intermediate strain, loop 6: wild type UGACCGCGAG, pool pattern UNNNCGNNNG; upper and lower strand joined, each 5' to 3', the first 5 letters being the upper strand, closing pairs included.

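A pool of all variants was put on leaves of three Nicotiana benthamiana plants. Progeny were sequenced from the inoculated region (day 5), the margin of the inoculated leaf (day 10) and systemic leaves (day 12).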

Numbers give reads per thousand; 0 = not seen among the reads, higher = more abundant. Each value is the mean of three plants. "Pool" is the share in the plasmid pool used as inoculum, on the same scale. The inoculated region was read from the minus strand, the other sites from the plus strand. With 36,220-57,551 reads a sample, very low values are single reads.

sequence	pool	inoculated region	leaf margin	systemic leaves
GGACCGCGAG	0.0261	0.226	0.666	0.964
UAAACGGGCG	0.170	3.54	1.16	0.448
UAAUCGGUCG	0.575	0.566	0.0922	0
UACGCGAACG	0.261	0.0891	0.0155	0
UACGCGCGCG	0.196	0.0706	0	0
UACGCGGAGG	0.0915	0.107	0	0
UACUCGCGGG	0.275	0.101	0	0
UAGCCGGGCG	0.314	0.0418	0.00920	0
UAGCCGGUUG	0.275	0.108	0.0168	0
UAGGCACUGG	0.0131	0	0	0
UAUACGAGCG	0.261	0.731	0.0698	0
UAUUCGCAGG	0.275	0.113	0.00920	0
UCAACGAAAG	0.0654	0.508	0.0739	0
UCAACGCGGG	0.222	0.0833	0.0155	0
UCAGCGACAG	0.301	0.131	0	0
UCAGCGAGGG	0.222	0.0773	0.00920	0
UCAGCGCCUG	0.183	0.0719	0.00920	0.00684
UCAUCGGCGG	0.288	0.113	0	0.00673
UCCACGCAGG	0.170	0.0843	0	0
UCCACGGUUG	0.209	0.0833	0	0
UCCUCGCUUG	0.157	0.0832	0	0
UCCUCGUACG	0.209	0.102	0	0
UCGGCGAUCG	0.314	0.0946	0	0
UCGUCGGGCG	0.131	0.0645	0.00920	0
UCGUCGGUCG	0.353	0.0824	0	0
UCUACGACGG	0.288	0.0775	0.0184	0
UCUACGCAUG	0.144	0.0840	0.0445	0
UCUCCGUCCG	0.261	0.0832	0.0169	0
UCUGCGUCAG	0.275	0.0842	0.00773	0
UGAACGAGUG	0.170	0.657	0.0902	0
UGAACGCAAG	0.131	0.856	0.115	0.0806
UGAACGGAAG	0.0523	3.88	1.23	0.540
UGAACGGUAG	0.157	3.55	1.12	0.406
UGAACGGUUG	0.118	0.678	0.0548	0
UGACAGACAG	0.0131	0	0	0
UGACCGAUGG	0.458	0.340	2.42	0.108
UGACCGCGUG	0.105	0.583	7.01	1.21
UGAGCGCCAG	0.235	0.0847	0	0
UGCACGGGGG	0.209	0.113	0	0
UGCCCGCAAG	0.0784	0.655	0.0239	0.0330
UGCGCGAACG	0.222	0.0784	0	0
UGCGCGUUUG	0.314	0.0423	0	0
UGCUCGUCCG	0.288	0.0594	0	0
UGGCCGUCGG	0.301	0.161	0.0169	0
UGGCCGUGUG	0.353	0.143	0.0169	0
UGGGCGCGAG	0.0915	0.0775	0.0360	0.00684
UGGGCGUGCG	0.144	0.0704	0.00773	0
UGGUCGACAG	0.314	0.108	0.00773	0
UGGUCGGACG	0.170	0.0838	0.00773	0
UUACCGCAGG	0.157	0.133	0.0169	0
UUACCGUAGG	0.235	0.144	0.0339	0
UUAGCGGGGG	0.170	0.0897	0	0
UUAGCGUUGG	0.340	0.0598	0.0155	0
UUAUCGGCGG	0.366	0.0775	0.00773	0
UUCACGGGUG	0.248	0.0832	0.00920	0.0128
UUCACGUUUG	0.641	0.0902	0	0.00684
UUCGCGGCGC	0.0131	0	0	0
UUCGCGGUAU	0.0131	0	0	0
UUCGCGUCAG	0.288	0.0786	0	0
UUCUCGGGAG	0.131	0.0775	0	0
UUGCCGACGG	0.314	0.107	0.00773	0
UUGGCGGUUU	0.0131	0	0	0
UUGUCGCACG	0.209	0.142	0.0155	0
UUGUCGGGUG	0.235	0.101	0	0
UUUACGUACG	0.235	0.0836	0	0

Excerpt, the final 4 entries:

| sequence | pool | inoculated region | leaf margin | systemic leaves |
|---|---|---|---|---|
| UUGGCGGUUU | 0.0131 | 0 | 0 | 0 |
| UUGUCGCACG | 0.209 | 0.142 | 0.0155 | 0 |
| UUGUCGGGUG | 0.235 | 0.101 | 0 | 0 |
| UUUACGUACG | 0.235 | 0.0836 | 0 | 0 |

Sequences that differ at fixed positions probably stem from PCR or sequencing errors, and defective variants can be carried along by functional ones. For reference, wild type rose from 20.7 per thousand in the pool to 195, 198, 203 (inoculated region), 629, 591, 734 (leaf margin) and 942, 870, 868 (systemic leaves).

Source: Wu et al. 2024 (doi:10.1371/journal.ppat.1012142), supplementary data.